According to patent publication US7982057B2, “Compound of stemphones and production thereof” (The Kitasato Institute, priority 2006, dated 2011):

Each compound was assayed on Jurkat cells (assay: Cytotoxicity on Jurkat cells by MTT method). Conditions: fold reduction of toxicity.
Assay type: cell-based
Procedure: Method for Evaluation of Cytotoxicity
Evaluation of cytotoxicity on Jurkat cells were performed by MTT method (Mosmaan, et al. J. Immunol. Methods, 65: 55-63, 1983). Cultured liquid of Jurkat cells were suspended in RPMI-1640 medium (Iwaki & Co., Ltd., Japan) to give suspension with 4×10^5 cells/ml, and the suspension 0.05 ml was seeded in each well of 96 well microplate (Corning Corp.). Subsequently, stemphone D substance, stemphone E substance, stemphone E1 substance, stemphone E2 substance, stemphone E3 substance or stemphone F substance (0.05 ml, 2% methanol/PRMI-1640 medium) was added and incubated at 37° C. for 48 hours in 5% carbon dioxide gas incubator. Then MTT reagent (SIGMA Inc.) dissolved in PBS to give concentration 5.5 mg/ml, 0.01 ml was added and reacted at 37° C. for 4 hours. After the reaction was performed, cell-lysing solution (40%, N-dimethylformamide (Kanto Chemical Co., Inc., Japan), 20% sodiumdodecyl sulfate (Wako Pure Chemical Industries, Ltd., Japan) 2% acetic acid (Kanto Chemical Co., Inc., Japan), 0.03% hydrochloric acid (Kanto Chemical Co., Inc., Japan) in purified water) 0.09 ml was added, and stirred at room temperature for 2 hours, then absorption at 550 nm was measured by using ELx 808 (BIO-TEK Instruments Inc.). As compared with stemphone C substance previously reported by the present inventor (ratio: 1.0), about 4-fold to 60-fold reduction of toxicity were confirmed.

Row | Compound | Ratio (IC50 compared with stemphone C substance, ratio 1.0)
1 | C/C=C(\C)C(OC(C)=O)C(C)C1=CC(=O)C2=C(OC3(C)CCC4OC(C(C)(C)O)CC(O)C4(C)C3C2)C1=O (stereo not drawn) [stemphone D substance] | 4.2
2 | C/C=C(\C)C(OC(C)=O)C(C)c1cc(OC)c2c(c1O)OC1(C)CCC3OC(C(C)(C)O)CC(O)C3(C)C1C2O (stereo not drawn) [stemphone E1 substance] | 60.9
3 | C/C=C(\C)C(OC(C)=O)C(C)c1cc(O)c2c(c1O)OC1(C)CCC3OC(C(C)(C)O)CC(O)C3(C)C1=C2 (stereo not drawn) [stemphone E2 substance] | 10.3
4 | C/C=C(\C)C(OC(C)=O)C(C)C1=CC(=O)C2=C(OC3(C)CCC4OC(C(C)(C)O)CC(O)C4(C)C3=C2)C1=O (stereo not drawn) [stemphone E3 substance] | 6.0
5 | C/C=C(\C)C(OC(C)=O)C(C)c1cc(O)c2c(c1O)OC1(C)CCC3OC(C(C)(C)O)CC(O)C3(C)C1C2O (stereo not drawn) [stemphone E substance] | 8.5
6 | C/C=C(\C)C(OC(C)=O)C(C)C1=CC(=O)C2=C(OC3(C)CCC4OC(C(C)(C)O)CC(O)C4(C)C3C2O)C1(O)CC(C)=O (stereo not drawn) [stemphone F substance] | 6.3
